The numbers were not newly measured in PubChem BioAssay AID977608, which cites them from elsewhere.

Structures are written as SMILES.

This data set addresses MDR HIV-1 protease variant, MDR 769 82T. Nature of the data set: protein-ligand inhibition affinities from structures – PDB-derived complexes (AID 977608). Particulars: literature IC50, protein: MDR HIV-1 protease variant, chain 3SPK_A,3SPK_B, PDB entry 3SPK.

As usually defined, the IC50 is the concentration that inhibits the measured activity by half. As for `CCC[C@@]1(CCc2ccccc2)CC(=O)C([C@H](CC)c2cccc(NS(=O)(=O)c3ccc(C(F)(F)F)cn3)c2)C(=O)O1` (stereo partly specified), the IC50 is 3.02 nM.
